## Replication capacity of HIV-1 mutants, Nef

From the data files of Al-Mawsawi et al. 2014, doi:10.1186/s12977-014-0124-6.

Protein: Nef of HIV-1 NL4-3, numbered from its first residue.
From base 9076 on, changes also alter the 3' U3.
Effects on overlapping genes or RNA elements are not listed.

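Random point mutant libraries of HIV-1 NL4-3, one for each of seven fragments, were passaged in CEM T lymphocytes. The RC index is the frequency of a change after passage round 2 divided by its frequency in the plasmid library.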

RC index: lower means poorer replication; rough cut-offs are 0.1 (lethal) and 0.2 (tolerated). A change reads original residue, position, new residue. Input reads are the counts in the plasmid library. The authors read an index above 1 as above wild type (1.9% of all changes in the genome).

With D186N (base G9342A, input reads 318) the assay gave 1.09. With P131L (base C9178T, input reads 173) the assay gave 0.761. A195D (base C9370A, input reads 98) gave 0.603. With P176T (base C9312A, input reads 283) the assay gave 0.760. A27S (base G8865T, input reads 101) gave 0.170. With P129S (base C9171T, input reads 441) the assay gave 1.75.

With E64V (base A8977T, input reads 194) the assay gave 0.785. For R17S (base G8837T, input reads 179) the result was 1.20. Y127C (base A9166G, input reads 246) gave 0.657. M1T (base T8788C, input reads 220) read 0.227. With M1L (base A8787T, input reads 329) the assay gave 0.00421. P131S (base C9177T, input reads 414) gave 0.711.

H193Y (base C9363T, input reads 307) read 0.946. For A190T (base G9354A, input reads 486) the result was 0.768. T80I (base C9025T, input reads 255) read 0.858. With H193N (base C9363A, input reads 187) the assay gave 0.271. E155D (base G9251T, input reads 280) read 0.768. With F68V (base T8988G, input reads 109) the assay gave 0.582.

G119C (base G9141T, input reads 484) gave 0.568. S163N (base G9274A, input reads 346) gave 1.28. E18D (base A8840C, input reads 78) read 0.0602. With F90L (base T9056A, input reads 264) the assay gave 0.699. N157I (base A9256T, input reads 395) gave 1.10. A54T (base G8946A, input reads 328) gave 0.817.

P122H (base C9151A, input reads 360) read 0.593. With S187I (base G9346T, input reads 263) the assay gave 0.995. T44A (base A8916G, input reads 195) gave 0.463. For G67D (base G8986A, input reads 227) the result was 0.684. With L110F (base C9114T, input reads 160) the assay gave 0.385. For A84T (base G9036A, input reads 645) the result was 0.593.

With D174G (base A9307G, input reads 343) the assay gave 0.403. For V180L (base G9324T, input reads 96) the result was 0.855. For F185L (base T9341A, input reads 303) the result was 0.418. E59V (base A8962T, input reads 222) gave 0.807. For Q107K (base C9105A, input reads 70) the result was 0.632. For A190V (base C9355T, input reads 439) the result was 0.439.

E62G (base A8971G, input reads 225) gave 0.577. P147T (base C9225A, input reads 104) read 0.977. For Y127N (base T9165A, input reads 331) the result was 0.232. With L181I (base T9327A, input reads 318) the assay gave 0.492. T80P (base A9024C, input reads 36) read 0.509. With W5C (base G8801C, input reads 127) the assay gave 6.21.

T128K (base C9169A, input reads 97) read 0.278.

A selection of 5 entries from above:

substitution,base,input reads,replication capacity index
G119C,G9141T,484,0.568
A190T,G9354A,486,0.768
E18D,A8840C,78,0.0602
E62G,A8971G,225,0.577
S163N,G9274A,346,1.28

Nucleotide positions follow pNL4-3. Clones carried about five changes per kilobase, which can drag down the index of neutral changes.